The text below walks through data of patent publication US10029984B2, “Mono- or di-substituted indole derivatives as dengue viral replication inhibitors” (Janssen Pharmaceuticals, Inc., priority 2015, dated 2018).

Holding throughout (type): cell-based, Dengue virus
In one data set the test system is DENV-2 strain 16681. The data set can be described thus: Tetravalent RT-qPCR assay Protocol A, serotype 2. Particulars: RT-qPCR serotype 2 16681. The protocol:
(§1) The antiviral activity of the compounds of the invention was tested against DENV-1 strain TC974#666 (NCPV; Table 6), DENV-2 strain 16681 (Table 7), DENV-3 strain H87 (NCPV; Table 8) and DENV-4 strains H241 (NCPV; Table 9) in a RT-qPCR assay. Therefore, Vero cells were infected with either DENV-1, or -2, or -3, or -4 in the presence or absence of test compounds. At day 3 post-infection, the cells were lysed and cell lysates were used to prepare cDNA of both a viral target (the 3′UTR of DENV; table 2) and a cellular reference gene (β-actin, table 2). Subsequently, a duplex real time PCR was performed on a Lightcycler480 instrument. The generated Cp value is inversely proportional to the amount of RNA expression of these targets. Inhibition of DENV replication by a test compound result in a shift of Cp's for the 3′UTR gene. On the other hand, if a test compound is toxic to the cells, a similar effect on β-actin expression will be observed. The comparative ΔΔCp method is used to calculate EC50, which is based on the relative gene expression of the target gene (3′UTR) normalized with the cellular housekeeping gene (β-actin).
(§2) The culture medium consisted of minimal essential medium supplemented with 2% of heat-inactivated fetal calf serum, 0.04% gentamycin (50 mg/mL) and 2 mM of L-glutamine. Vero cells, obtained from ECACC, were suspended in culture medium and 75 μL/well was added in 96-well plates (10000 cells/well), which already contain the antiviral compounds. Typically, these plates contain a 4-fold serial dilution of 9 dilution steps of the test compound at 200 times the final concentration in 100% DMSO (500 nL; final concentration range: 25 μM-0.00038 μM). In addition, each plate contains wells which are assigned as virus controls (containing cells and virus in the absence of compound) and cell controls (containing cells in the absence of virus and compound). Once the cells were added in the plates, the plates were incubated in a fully humidified incubator (37° C., 5% CO2) until the next day. Then, DENV-1 strain TC974#666 at an MOI of 0.6, DENV-2 strain 16681 at an MOI of 0.01, DENV-3 strain H87 at an MOI of 1.0 and DENV-4 strains H241 at an MOI of 0.2 and SG/06K2270DK1/2005 at an MOI of 0.16, were added. Therefore, 25 μL of virus suspension was added to all the wells containing test compound and to the wells assigned as virus control. In parallel, 25 μL of culture medium was added to the cell controls. Next, the plates were incubated for 3 days in a fully humidified incubator (37° C., 5% CO2). After 3 days, the supernatant was removed from the wells and the cells were washed twice with ice-cold PBS (˜100 μL). The cell pellets within the 96-well plates were stored at −80° C. for at least 1 day. Next, RNA was extracted using the Cells-to-CT™ lysis kit, according to the manufacture's guideline (Applied Biosystems). The cell lysates can be stored at −80° C. or immediately used in the reverse transcription step.
(§3) In preparation of the reverse transcription step, mix A (table 3A) was prepared and 7.57 μL/well was dispensed in a 96-well plate. After addition of 5 μL of the cell lysates, a five minute denaturation step at 75° C. was performed (table 3B). Afterwards, 7.43 μL of mix B was added (table 3C) and the reverse transcription step was initiated (table 3D) to generate cDNA.
(§4) Finally, a RT-qPCR mix was prepared, mix C (table 4A), dispensed in 96-well LightCycler qPCR plates to which 3 μL of cDNA was added and the qPCR was performed according to the conditions in table 4B on a LightCycler 480. Using the LightCycler software and an in-house LIMS system, dose response curves for each compound were calculated and the half maximal effective concentration (EC50) and the half maximal cytotoxic concentration (CC50) were determined.

The next data set deals with DENV-3 strain H87. The data set can be described thus: Tetravalent RT-qPCR assay Protocol A, serotype 3. Particulars: RT-qPCR serotype 3 H87. The protocol: as §1, §2, §3, §4
A further data set relates to DENV-1 strain TC974#666. The data set can be described thus: Tetravalent RT-qPCR assay Protocol A, serotype 1. Particulars: RT-qPCR serotype 1 TC974#666. The protocol: as §1, §2, §3, §4
The subject of the next data set is DENV-2 16681 strain. The data set can be described thus: DENV-2 antiviral assay (eGFP-labeled virus in Vero cells). The conditions noted are these: SI=CC50/EC50, DENV-2 antiviral assay. The protocol: The antiviral activity of all the compounds of the invention was tested against DENV-2 16681 strain which was labeled with enhanced green fluorescent protein (eGPF; Table 1). The culture medium consists of minimal essential medium supplemented with 2% of heat-inactivated fetal calf serum, 0.04% gentamycin (50 mg/mL) and 2 mM of L-glutamine. Vero cells, obtained from ECACC, were suspended in culture medium and 25 μL was added to 384-well plates (2500 cells/well), which already contain the antiviral compounds. Typically, these plates contain a 4-fold serial dilution of 9 dilution steps of the test compound at 200 times the final concentration in 100% DMSO (200 nL). In addition, each compound concentration is tested in quadruplicate (final concentration range: 25 μM-0.00038 μM). Finally, each plate contains wells which are assigned as virus controls (containing cells and virus in the absence of compound), cell controls (containing cells in the absence of virus and compound) and medium controls (containing medium in the absence of cells, virus and compounds). To the wells assigned as medium control, 25 μL of culture medium was added instead of Vero cells. Once the cells were added to the plates, the plates were incubated for 30 minutes at room temperature to allow the cells to distribute evenly within the wells. Next, the plates were incubated in a fully humidified incubator (37° C., 5% CO2) until the next day. Then, DENV-2 strain 16681, labeled with eGFP, was added at a multiplicity of infection (MOI) of 0.5. Therefore, 15 μL of virus suspension was added to all the wells containing test compound and to the wells assigned as virus control. In parallel, 15 μL of culture medium was added to the medium and cell controls. Next, the plates were incubated for 3 days in a fully humidified incubator (37° C., 5% CO2). At the day of the read out, the eGFP fluorescence was measured using an automated fluorescence microscope at 488 nm (blue laser). Using an in-house LIMS system, inhibition dose response curves for each compound were calculated and the half maximal effective concentration (EC50) was determined. Therefore, the percent inhibition (I) for every test concentration is calculated using the following formula: I=100*(ST−SCC)/(SVC−SCC); ST, SCC and SVC are the amount of eGFP signal in the test compound, cell control and virus control wells, respectively. The EC50 represents the concentration of a compound at which the virus replication is inhibited with 50%, as measured by a 50% reduction of the eGFP fluorescent intensity compared to the virus control. The EC50 is calculated using linear interpolation.

The test system of a further data set is DENV-4 strains H241. The data set can be described thus: Tetravalent RT-qPCR assay Protocol A, serotype 4. Particulars: RT-qPCR serotype 4 H241. How it is done: as §1, §2, §3, §4

As for `COc1cc(NC(C(=O)c2c[nH]c3cc(F)ccc23)c2ccc(F)cc2OC)cc(S(C)(=O)=O)c1` (single isomer, unassigned) [Enantiomer 1A, 1-(6-fluoro-1H-indol-3-yl)-2-(4-fluoro-2-methoxyphenyl)-2-((3-methoxy-5-(methylsulfonyl)phenyl)amino)ethanone], the SI is 4303 with DENV-2 strain 16681; 50 with DENV-3 strain H87; 642 in the data set on DENV-1 strain TC974#666; 6654 in the data set with DENV-2 16681 strain (listed as 1A*); 17 in the data set with DENV-4 strains H241.

Consider `COc1cc(NC(C(=O)c2c[nH]c3c(C)c(F)ccc23)c2ccc(F)cc2OC)cc(S(C)(=O)=O)c1` (single isomer, unassigned) [Enantiomer 2A, 2-(4-fluoro-2-methoxyphenyl)-1-(6-fluoro-7-methyl-1H-indol-3-yl)-2-((3-methoxy-5-(methylsulfonyl)phenyl)amino)ethanone], for which the SI was 4858 in the data set with DENV-2 strain 16681; 57 in the data set on DENV-3 strain H87; 474 with DENV-1 strain TC974#666; 7834 in the data set with DENV-2 16681 strain (listed as 2A*); 16 with DENV-4 strains H241.

As to `COc1cc(NC(C(=O)c2c[nH]c3c(C)c(Cl)ccc23)c2ccc(F)cc2OC)cc(S(C)(=O)=O)c1` (single isomer, unassigned) [Enantiomer 3A, 1-(6-chloro-7-methyl-1H-indol-3-yl)-2-(4-fluoro-2-methoxyphenyl)-2-((3-methoxy-5-(methylsulfonyl)phenyl)amino)ethanone], the SI in the data set with DENV-2 strain 16681 is 20905; with DENV-3 strain H87 it was 52; with DENV-1 strain TC974#666, 545; in the data set on DENV-2 16681 strain (listed as 3A*), 17249; in the data set on DENV-4 strains H241, 19.

In the case of `COc1cc(NC(C(=O)c2c[nH]c3cc(Cl)ccc23)c2ccc(F)cc2OC)cc(S(C)(=O)=O)c1` (single isomer, unassigned) [Enantiomer 4A, 1-(6-chloro-1H-indol-3-yl)-2-(4-fluoro-2-methoxyphenyl)-2-((3-methoxy-5-(methylsulfonyl)phenyl)amino)ethanone], the SI in the data set with DENV-2 strain 16681 is reported as 12281; in the data set with DENV-3 strain H87 it was 47; in the data set with DENV-1 strain TC974#666, 851; in the data set on DENV-2 16681 strain (listed as 4A*), 8726; in the data set with DENV-4 strains H241, 24.

Turning to `COc1cc(NC(C(=O)c2c[nH]c3cc(OC)ccc23)c2ccc(F)cc2OC)cc(S(C)(=O)=O)c1` (single isomer, unassigned) [Enantiomer 5B, 2-(4-fluoro-2-methoxyphenyl)-1-(6-methoxy-1H-indol-3-yl)-2-((3-methoxy-5-(methylsulfonyl)phenyl)amino)ethanone], the SI with DENV-2 strain 16681 worked out at 5868; with DENV-3 strain H87, 28; in the data set on DENV-1 strain TC974#666, 928; with DENV-2 16681 strain (listed as 5B*) it was 14546; with DENV-4 strains H241, 27.

Regarding `COc1cc(NC(C(=O)c2c[nH]c3c(F)cc(C)cc23)c2ccc(F)cc2OC)cc(S(C)(=O)=O)c1` (single isomer, unassigned) [Enantiomer 6A, 2-(4-fluoro-2-methoxyphenyl)-1-(7-fluoro-5-methyl-1H-indol-3-yl)-2-((3-methoxy-5-(methylsulfonyl)phenyl)amino)ethanone], the SI stood at 1274 in the data set on DENV-2 strain 16681; 43 in the data set on DENV-3 strain H87; 476 in the data set on DENV-1 strain TC974#666; 1887 in the data set with DENV-2 16681 strain (listed as 6A*); 11 with DENV-4 strains H241.

`COc1cc(NC(C(=O)c2c[nH]c3cc(F)c(F)cc23)c2ccc(F)cc2OC)cc(S(C)(=O)=O)c1` (single isomer, unassigned) [Enantiomer 7A, 1-(5,6-difluoro-1H-indol-3-yl)-2-(4-fluoro-2-methoxyphenyl)-2-((3-methoxy-5-(methylsulfonyl)phenyl)amino)ethanone]: the SI in the data set on DENV-2 strain 16681 was 7689; in the data set on DENV-3 strain H87 it was 48; in the data set with DENV-1 strain TC974#666, 904; with DENV-2 16681 strain (listed as 7A*) it was 5733; with DENV-4 strains H241, 18.

In the case of `COc1cc(NC(C(=O)c2c[nH]c3c(F)c(F)ccc23)c2ccc(F)cc2OC)cc(S(C)(=O)=O)c1` (single isomer, unassigned) [Enantiomer 13B, 1-(6,7-difluoro-1H-indol-3-yl)-2-(4-fluoro-2-methoxyphenyl)-2-((3-methoxy-5-(methylsulfonyl)phenyl)amino)ethanone], the SI in the data set with DENV-2 strain 16681 amounted to 5492; with DENV-2 16681 strain (listed as 13B*), 6211; in the data set on DENV-4 strains H241, 11.

In the case of `COc1cc(NC(C(=O)c2c[nH]c3ccc(C)cc23)c2ccc(F)cc2OC)cc(S(C)(=O)=O)c1` (single isomer, unassigned) [Enantiomer 15A, 2-(4-fluoro-2-methoxyphenyl)-2-((3-methoxy-5-(methylsulfonyl)phenyl)amino)-1-(5-methyl-1H-indol-3-yl)ethanone], the SI is on record as 4357 in the data set on DENV-2 strain 16681, over 712 with DENV-1 strain TC974#666, over 4057 in the data set on DENV-2 16681 strain (listed as 15A*) and 40 in the data set on DENV-4 strains H241.
